Data as given in PubChem BioAssay AID624099 (ICCB-Longwood, 2012)
In all, the deposit lists about 21,000 reagents; this is an unselected part. 497 of them (2.4%) count as active. 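Higher z means weaker E2 silencing; only reporter increases were scored, and knock-downs that hurt cell survival may mask genuine repressor factors.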 Entries without a mark were called inactive.

Aim: 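Human genes that papillomavirus E2 requires to repress the HPV18 LCR promoter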 (primary screen)
System: human C33A cervical carcinoma cells (HPV-negative) stably expressing BPV1 E2 and an HPV18 LCR luciferase reporter
Reagent: siRNA pool against human genes, 40 nM
Timing: 72 h
Detection: 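HPV18 LCR reporter light per well, converted to plate-wise z-scores that exclude control wells, and averaged over triplicate plates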
Scale: mean z-score and z-score: higher = stronger reporter signal, weaker E2 silencing
Hit rule: 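Mean z ≥ 2 together with z ≥ 2 in two or more of the three replicates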

| gene symbol | mean z-score | z-score, replicate A | z-score, replicate B | z-score, replicate C |
| --- | --- | --- | --- | --- |
| ENTREP3 | 0.23 | 0.23 | 0.07 | 0.37 |
| LARP1 | -0.06 | -0.22 | -0.03 | 0.08 |
| PDGFRB | 0.41 | 0.36 | 0.35 | 0.53 |
| TEAD2 | 1.82 | 1.79 | 1.79 | 1.88 |
| ATXN1 | -0.81 | -0.49 | -0.63 | -1.31 |
| SMIM3 | 0.14 | -0.43 | 0.28 | 0.56 |
| OXLD1 | 0.64 | 0.94 | 0.47 | 0.51 |
| FOXL1 | -0.72 | -0.45 | -0.64 | -1.07 |
| LOC388752 (retired record) | -0.36 | -0.3 | -0.2 | -0.58 |
| ODF4 | -1.12 | -0.93 | -0.9 | -1.53 |
| ORAI2 | -0.77 | -0.46 | -1 | -0.86 |
| DAW1 | 0.93 | 0.88 | 1.25 | 0.65 |
| NINL | 1.78 | 1.85 | 1.65 | 1.85 |
| NUDT10 | 0.96 | 0.81 | 0.99 | 1.07 |
| TAF7 | -0.61 | -0.64 | -0.55 | -0.64 |
| RNLS | 1.82 | 2.09 | 2.08 | 1.28 |
| NAALADL1 | -0.44 | -0.33 | -0.24 | -0.74 |
| PAFAH1B1 | -0.04 | 0.27 | -0.06 | -0.33 |
| PHRF1 | 0.37 | 0.81 | 0.12 | 0.18 |
| DENND2C | 0.23 | 0.19 | 0.31 | 0.19 |
| POU3F4 | -0.83 | -0.67 | -0.84 | -0.98 |
| GLUD1 | 1.95 | 1.73 | 2.02 | 2.11 |
| LOC151451 (retired record) | 0.47 | 0.67 | 0.36 | 0.39 |
| XCR1 | -0.78 | -0.89 | -0.75 | -0.69 |
| MICOS13 | 1.53 | 1.58 | 1.26 | 1.74 |
| ZNF137P | 1.46 | 1.39 | 1.56 | 1.44 |
| MAP3K4 | 0.86 | 1.04 | 0.53 | 1.02 |
| SATB2 | -1.44 | -1.8 | -1.86 | -0.66 |
| USP27X-DT | -0.58 | 0.04 | -0.81 | -0.99 |
| RPSAP48 | -0.63 | -0.19 | -0.91 | -0.8 |
| ESYT2 | -1.22 | -0.98 | -1.28 | -1.41 |
| LOC401034 (retired record) | -0.02 | 0.09 | -0.31 | 0.16 |
| LOC388432 (retired record) | 0.42 | 0.43 | 0.18 | 0.66 |
| ALPP | -0.3 | -0.24 | -0.47 | -0.2 |
| ASIC5 | 1.19 | 1.37 | 1.27 | 0.94 |
| TBC1D10C | 0.78 | 0.73 | 0.45 | 1.18 |
| LOC402353 (retired record) | -0.14 | -0.04 | 0.08 | -0.47 |
| ANKRD36 | -0.04 | -0.36 | 0.22 | 0 |
| OTUD6B | -0.42 | -0.1 | -0.3 | -0.87 |
